Values joined by “and” are separate entries in the source; they are usually repeats but may differ in a detail not shown here. Identical values can stand only once.
Tests used:
[1] = molecular target: recombinant A(H1N1)pdm09 PAN WT (Influenza A virus, UniProt C3W5S0, DEL51-57/DEL61-72/E59G); assay: Modified thermofluor assay, BXA-rPAN thermal stabilization; conditions: for SYPRO Orange signal: 37uM BXA
[2] = test system: recombinant A(H3N2) PAN E23G+I38T; assay: as above

## O=C1c2c(O)c(=O)ccn2N([C@@H]2c3ccccc3SCc3c2ccc(F)c3F)[C@@H]2COCCN12
[1]; 31 °C
  SYPRO Orange signal: 2371.15 RFU and 1897.11 RFU and 2285.51 RFU
[1]; 32 °C
  SYPRO Orange signal: 2440.89 RFU and 1837.11 RFU and 2903.6 RFU
[1]; 33 °C
  SYPRO Orange signal: 2436.67 RFU and 1503.86 RFU and 2554.78 RFU
[1]; 34 °C
  SYPRO Orange signal: 3025.03 RFU and 2118.09 RFU and 2577.12 RFU
[1]; 35 °C
  SYPRO Orange signal: 2642.63 RFU and 1783.19 RFU and 2860.1 RFU
[1]; 36 °C
  SYPRO Orange signal: 2913.9 RFU and 2082.18 RFU and 2803.49 RFU
[1]; 37 °C
  SYPRO Orange signal: 3236.84 RFU and 2104.5 RFU and 2929.48 RFU
[1]; 38 °C
  SYPRO Orange signal: 2786.33 RFU and 2017.83 RFU and 2405.79 RFU
[1]; 39 °C
  SYPRO Orange signal: 3012.32 RFU and 2483.05 RFU and 2456.19 RFU
[1]; 40 °C
  SYPRO Orange signal: 2840.78 RFU and 2236.17 RFU and 2409.43 RFU
[1]; 41 °C
  SYPRO Orange signal: 3207.14 RFU and 2468.41 RFU and 2503.98 RFU
[1]; 42 °C
  SYPRO Orange signal: 2897.59 RFU and 2725.24 RFU and 2700.57 RFU
[1]; 43 °C
  SYPRO Orange signal: 2520.24 RFU and 2449.69 RFU and 2751.22 RFU
[1]; 44 °C
  SYPRO Orange signal: 3070.47 RFU and 2413.57 RFU and 2637.47 RFU
[1]; 45 °C
  SYPRO Orange signal: 3181.83 RFU and 2425.89 RFU and 2692.02 RFU
[1]; 46 °C
  SYPRO Orange signal: 3084.92 RFU and 2556.84 RFU and 2828.37 RFU
[1]; 47 °C
  SYPRO Orange signal: 2959.11 RFU and 2257.08 RFU and 2506.52 RFU
[1]; 48 °C
  SYPRO Orange signal: 2963.45 RFU and 2232.34 RFU and 2811.86 RFU
[1]; 49 °C
  SYPRO Orange signal: 2781.89 RFU and 2722.39 RFU and 2596.53 RFU
[1]; 50 °C
  SYPRO Orange signal: 2678.55 RFU and 2494.79 RFU and 2800.46 RFU
[1]; 51 °C
  SYPRO Orange signal: 2761.09 RFU and 2070.69 RFU and 2605.89 RFU
[1]; 52 °C
  SYPRO Orange signal: 2685.52 RFU and 2125.76 RFU and 2755.56 RFU
[1]; 53 °C
  SYPRO Orange signal: 2774.4 RFU and 2219.89 RFU and 2372.74 RFU
[1]; 54 °C
  SYPRO Orange signal: 2307.32 RFU and 2130.92 RFU and 2680.32 RFU
[1]; 55 °C
  SYPRO Orange signal: 2191.95 RFU and 2444.53 RFU and 2693.28 RFU
[1]; 56 °C
  SYPRO Orange signal: 2466.96 RFU and 2430.89 RFU and 2675.52 RFU
[1]; 57 °C
  SYPRO Orange signal: 2397.83 RFU and 1832.31 RFU and 2604.85 RFU
[1]; 58 °C
  SYPRO Orange signal: 2708.56 RFU and 2251.8 RFU and 3081.07 RFU
[1]; 59 °C
  SYPRO Orange signal: 3014.84 RFU and 2388.34 RFU and 3415.04 RFU
[1]; 60 °C
  SYPRO Orange signal: 3117.69 RFU and 2758.07 RFU and 3511.11 RFU
[1]; 61 °C
  SYPRO Orange signal: 2800.76 RFU and 2508.13 RFU and 3306.67 RFU
[1]; 62 °C
  SYPRO Orange signal: 3214.24 RFU and 3013.25 RFU and 3808.58 RFU
[1]; 63 °C
  SYPRO Orange signal: 3249.1 RFU and 2839.07 RFU and 3696.82 RFU
[1]; 64 °C
  SYPRO Orange signal: 3620.74 RFU and 3021.69 RFU and 4263.1 RFU
[1]; 65 °C
  SYPRO Orange signal: 3734.94 RFU and 3214.44 RFU and 4629.39 RFU
[1]; 66 °C
  SYPRO Orange signal: 4138.49 RFU and 3406.16 RFU and 4816.32 RFU
[1]; A(H1N1)pdm09 PAN WT 2 μM, BXA 37 μM
  Tm (°C) with BXA: 80 °C and 80.3 ± 0.1 °C and 80.3 °C
[1]; A(H1N1)pdm09 PAN WT, DMSO vs BXA 37 μM
  ΔTm (°C): 25 °C and 25.3 ± 0.2 °C
[1]; Panel A, WT, 67 °C
  SYPRO Orange signal: 4647.68 RFU and 4402.97 RFU and 5149.5 RFU
[1]; Panel A, WT, 68 °C
  SYPRO Orange signal: 4527.01 RFU and 4382.62 RFU and 5531.66 RFU
[1]; Panel A, WT, 69 °C
  SYPRO Orange signal: 5116.8 RFU and 4634.86 RFU and 6091.6 RFU
[1]; Panel A, WT, 70 °C
  SYPRO Orange signal: 5420.44 RFU and 5215.61 RFU and 6274.77 RFU
[1]; Panel A, WT, 71 °C
  SYPRO Orange signal: 5273.55 RFU and 5760.03 RFU and 6306.18 RFU
[1]; Panel A, WT, 72 °C
  SYPRO Orange signal: 5577.44 RFU and 5512.91 RFU and 6490.41 RFU
[1]; Panel A, WT, 73 °C
  SYPRO Orange signal: 6396.49 RFU and 6100.77 RFU and 7025.81 RFU
[1]; Panel A, WT, 74 °C
  SYPRO Orange signal: 6997.14 RFU and 7090.59 RFU and 7843.32 RFU
[1]; Panel A, WT, 75 °C
  SYPRO Orange signal: 8250.92 RFU and 8482.91 RFU and 9078.46 RFU
[1]; Panel A, WT, 76 °C
  SYPRO Orange signal: 10981.3 RFU and 11343.3 RFU and 12382.8 RFU
[1]; Panel A, WT, 77 °C
  SYPRO Orange signal: 15582.4 RFU and 15551.3 RFU and 16436.3 RFU
[1]; Panel A, WT, 78 °C
  SYPRO Orange signal: 22928.9 RFU and 22799.3 RFU and 24313 RFU
[1]; Panel A, WT, 79 °C
  SYPRO Orange signal: 35114.6 RFU and 34674.5 RFU and 36154.3 RFU
[1]; Panel A, WT, 80 °C
  SYPRO Orange signal: 54814 RFU and 52955.1 RFU and 55956.1 RFU
[1]; Panel A, WT, 81 °C
  SYPRO Orange signal: 84030 RFU and 81254.2 RFU and 85478.8 RFU
[1]; Panel A, WT, 82 °C
  SYPRO Orange signal: 120714 RFU and 116787 RFU and 123501 RFU
[1]; Panel A, WT, 83 °C
  SYPRO Orange signal: 152752 RFU and 149288 RFU and 158637 RFU
[1]; Panel A, WT, 84 °C
  SYPRO Orange signal: 170367 RFU and 168514 RFU and 179263 RFU
[1]; Panel A, WT, 85 °C
  SYPRO Orange signal: 174240 RFU and 172586 RFU and 183988 RFU
[1]; Panel A, WT, 86 °C
  SYPRO Orange signal: 171802 RFU and 170329 RFU and 181647 RFU
[1]; Panel A, WT, 87 °C
  SYPRO Orange signal: 168135 RFU and 167081 RFU and 177962 RFU
[1]; Panel A, WT, 88 °C
  SYPRO Orange signal: 163762 RFU and 163902 RFU and 173226 RFU
[1]; Panel A, WT, 89 °C
  SYPRO Orange signal: 159543 RFU and 159134 RFU and 167979 RFU
[1]; Panel A, WT, 90 °C
  SYPRO Orange signal: 154890 RFU and 154894 RFU and 163580 RFU
[1]; Panel A, WT, 91 °C
  SYPRO Orange signal: 150308 RFU and 150229 RFU and 157461 RFU
[1]; Panel A, WT, 92 °C
  SYPRO Orange signal: 145884 RFU and 145939 RFU and 150858 RFU
[1]; Panel A, WT, 93 °C
  SYPRO Orange signal: 141347 RFU and 141563 RFU and 145119 RFU
[1]; Panel A, WT, 94 °C
  SYPRO Orange signal: 137119 RFU and 136440 RFU and 140604 RFU
[1]; Panel A, WT, 95 °C
  SYPRO Orange signal: 132430 RFU and 131876 RFU and 135323 RFU
[1]; Panel A, WT, 96 °C
  SYPRO Orange signal: 128202 RFU and 127247 RFU and 128149 RFU
[1]; Panel A, WT, 97 °C
  SYPRO Orange signal: 123762 RFU and 121687 RFU and 121268 RFU
[1]; Panel A, WT, 98 °C
  SYPRO Orange signal: 120477 RFU and 117521 RFU and 115008 RFU
[1]; Panel A, WT, 99 °C
  SYPRO Orange signal: 115966 RFU and 112142 RFU and 107473 RFU
[2]; A(H3N2) PAN E23G+I38T 2 μM, BXA 37 μM
  Tm (°C) with BXA: 64.2 ± 0.1 °C and 64.2 °C
[2]; A(H3N2) PAN E23G+I38T, DMSO vs BXA 37 μM
  ΔTm (°C): 14.0 ± 0.3 °C

— article PMC9312377
